According to PubChem BioAssay AID588726 (The Scripps Research Institute Molecular Screening Center, 2011):
The list shows a part of the results, in another mix than the full data. Some salts or complexes appear as unconnected parts, following the source record. Calls of active or inactive are those of the source. No stated cut-off is given here; in the data, active means inhibition above about 27%; inactive means the rest.

Sequences of proteins named here, by UniProt entry; tags and fusion partners are left off.
UniProt P9WQA3, whole entry: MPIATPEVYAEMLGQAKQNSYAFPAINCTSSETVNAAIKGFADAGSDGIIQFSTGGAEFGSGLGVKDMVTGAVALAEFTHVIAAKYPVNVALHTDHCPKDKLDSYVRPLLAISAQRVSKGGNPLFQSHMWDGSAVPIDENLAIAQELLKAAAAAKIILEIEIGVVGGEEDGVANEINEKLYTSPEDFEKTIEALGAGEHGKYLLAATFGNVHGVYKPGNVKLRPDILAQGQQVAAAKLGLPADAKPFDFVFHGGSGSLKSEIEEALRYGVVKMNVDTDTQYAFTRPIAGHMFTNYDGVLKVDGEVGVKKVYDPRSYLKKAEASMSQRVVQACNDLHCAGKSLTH

biological target: Fructose-bisphosphate aldolase (Mycobacterium tuberculosis (strain ATCC 25618 / H37Rv)) (UniProt P9WQA3); assay: M. tuberculosis aldolase activity blockers – biochemical, fluorescence, strain H37Rv, primary screen (AID 588726);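 further: 0% = vehicle and 100% = reference inhibitor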; conditions: purified M. tuberculosis FBA, fluorescence read-out; at 1 µM; active compounds read high

SMILES | inhibition
CP(=O)(Nc1ccc(SC(F)(F)F)cc1)Oc1ccccc1 (stereo not given) | inactive: -0.42%
CCCOc1ccc(NP(C)(=O)Oc2ccc(Cl)cc2)cc1 (stereo not given) | inactive: 0.31%
COc1ccccc1OP(C)(=O)Nc1c(C)cccc1C (stereo not given) | inactive: -3.47%
CN1CCCCC1COC(=O)C1(O)c2ccccc2CCc2ccccc21 (stereo not given) | inactive: 1.26%
CCOC(=O)C(CC)C1=NC(C)(C)Cc2ccccc21.O=[N+]([O-])c1cc([N+](=O)[O-])c(O)c([N+](=O)[O-])c1 (stereo not given) | inactive: -17.7%
O=[N+]([O-])c1cc([N+](=O)[O-])c(Nc2nnnn2CCO)c([N+](=O)[O-])c1 | inactive: -10.7%
CC1=C2N=C(C=C3N=C(C(C)=C4[N-][C@@](C)([C@@H]5N=C1[C@](C)(CCC(=O)NC[C@@H](C)OP(=O)([O-])O[C@H]1[C@@H](O)[C@@H](n6cnc7cc(C)c(C)cc76)O[C@@H]1CO)[C@H]5CC(N)=O)[C@@](C)(CC(N)=O)[C@@H]4CCC(N)=O)[C@@](C)(CC(N)=O)[C@@H]3CCC(N)=O)C(C)(C)[C@@H]2CCC(N)=O.[C-]#N.[Co+3] | inactive: -4.85%
Cc1nc2ccc3ccccc3c2s1.O=[N+]([O-])c1cc([N+](=O)[O-])c(O)c([N+](=O)[O-])c1 | inactive: -22.6%
O=[N+]([O-])c1cc([N+](=O)[O-])c(-c2cnn(-c3ccccc3)c2)c([N+](=O)[O-])c1 | inactive: -2.57%
CN(Cc1cccnc1)C(=O)COc1ccc(Cl)c(Cl)c1.O=[N+]([O-])c1cc([N+](=O)[O-])c(O)c([N+](=O)[O-])c1 | inactive: -11.4%
O=[N+]([O-])c1cc([N+](=O)[O-])c(-n2nnc3ccccc32)c([N+](=O)[O-])c1 | inactive: -2.4%
CP(=O)(Nc1cccc(Br)c1)Oc1ccccc1 (stereo not given) | inactive: 1.98%
Cc1cc(C)cc(OP(C)(=O)Nc2ccccn2)c1 (stereo not given) | inactive: 1.8%
Cc1ccc(C)c(NP(C)(=O)Oc2ccccc2)c1 (stereo not given) | inactive: 0.22%
Cc1cc(C)cc(OP(C)(=O)Nc2ccc(C)cc2C)c1 (stereo not given) | inactive: -3.1%
CCOC(=O)c1ccc(NP(C)(=O)Oc2cc(C)cc(C)c2)cc1 (stereo not given) | inactive: -2.35%
COc1ccccc1OP(C)(=O)Nc1cccc(Br)c1 (stereo not given) | inactive: 1.41%
CC1=NCCc2c1[nH]c1ccccc21.O=[N+]([O-])c1cc([N+](=O)[O-])c(O)c([N+](=O)[O-])c1 | inactive: -1.99%
O=C(O)c1cccc(Nc2c([N+](=O)[O-])cc([N+](=O)[O-])cc2[N+](=O)[O-])c1 | inactive: -10.8%
COc1ccc(OP(C)(=O)Nc2cccc(F)c2)cc1 (stereo not given) | inactive: -2.59%
COc1ccccc1OP(C)(=O)Nc1cc(Cl)ccc1C (stereo not given) | inactive: 0.52%
Cc1cc(C)cc(OP(C)(N)=O)c1 (stereo not given) | inactive: 2.64%
CCOC(=O)c1ccc(NP(C)(=O)Oc2ccccc2)cc1 (stereo not given) | inactive: -0.03%
Cc1ccc(NP(C)(=O)Oc2ccccc2)c(C)c1 (stereo not given) | inactive: 0.64%

SMILES | inhibition
COc1ccccc1OP(C)(=O)Nc1ccc(C)cc1 (stereo not given) | inactive: 0.76%
Cc1cccc(C)c1OP(C)(N)=O (stereo not given) | inactive: 0.49%
CC(C)(C)c1ccc(OP(C)(=O)Nc2ccc(SC(F)(F)F)cc2)cc1 (stereo not given) | inactive: -2.15%
O=[N+]([O-])c1ccc2c(c1)C=Nc1ccccc1O2 | inactive: -7.67%
O=[N+]([O-])c1cc([N+](=O)[O-])c(Nc2cccnc2)c([N+](=O)[O-])c1 | inactive: -3.52%
CCN(CC)CCCOC(=O)C(O)(c1ccccc1)c1ccccc1 | inactive: 3.58%
CP(=O)(Nc1ccccn1)Oc1ccc(Cl)cc1 (stereo not given) | inactive: 0.8%
CCOP(C)(=S)SCC(=O)NC(C)C(=O)O (stereo not given) | inactive: -1.83%
CCOC(=O)c1ccc(NP(C)(=O)Oc2ccc(OC)cc2)cc1 (stereo not given) | inactive: -1.19%
O=[N+]([O-])c1cc([N+](=O)[O-])c(O)c([N+](=O)[O-])c1.c1ccc(Oc2ccncc2)cc1 | inactive: -1.48%
Cc1cc(C)cc(OP(C)(=O)Nc2ccc(SC(F)(F)F)cc2)c1 (stereo not given) | inactive: 3.11%
CCc1ccc(OP(C)(=O)N2CCN(c3ccc([N+](=O)[O-])cc3)CC2)cc1 (stereo not given) | inactive: -6.31%
CP(=O)(NC(=O)Nc1ccccc1)Oc1ccccc1 (stereo not given) | inactive: 0.64%
CP(=O)(Oc1ccccc1)OC(c1ccccc1)C(F)(F)F (stereo not given) | inactive: -2.8%
Cc1cccc(C)c1OP(C)(=O)Nc1ccc(SC(F)(F)F)cc1 (stereo not given) | inactive: 3.61%
Cc1ccc(Nc2c([N+](=O)[O-])cc([N+](=O)[O-])cc2[N+](=O)[O-])cc1 | inactive: -6.04%
CP(=O)(Nc1ccc(SC(F)(F)F)cc1)Oc1ccc(Cl)cc1 (stereo not given) | inactive: -4.92%
COc1ccccc1OP(C)(=O)Nc1ccccc1 (stereo not given) | inactive: 0.69%
CP(=O)(Nc1ccccc1Br)Oc1ccccc1 (stereo not given) | inactive: -1.04%
CP(=S)(Nn1cnnc1)Oc1ccccc1 (stereo not given) | inactive: 3.42%
CP(=O)(OC12CC3CC(CC(C3)C1)C2)OC12CC3CC(CC(C3)C1)C2 | inactive: 0.77%
CCOC(=O)c1ccc(NP(C)(=O)Oc2ccc(Cl)cc2)cc1 (stereo not given) | inactive: 3.01%
CN(C)C(=O)c1c([N+](=O)[O-])cc([N+](=O)[O-])cc1[N+](=O)[O-] | inactive: 0.12%
CP(=O)(Nc1ccc(Cl)cc1)Oc1ccc(F)cc1 (stereo not given) | inactive: 0.45%

SMILES | inhibition
CC(C)(C)c1ccc(OP(C)(=O)O)cc1 | inactive: 2.13%
COc1ccccc1OP(C)(=O)Nc1ccccc1Br (stereo not given) | inactive: 3.65%
CCc1ccc(OP(C)(=O)Nc2cccnc2)cc1 (stereo not given) | inactive: 3.57%
CP(=O)(Oc1ccccc1)N1CCOC1=O (stereo not given) | inactive: -0.12%
O=C(OCCCN1CCCC1)C(O)(c1ccccc1)C1CCCCC1 (stereo not given) | inactive: 0.79%
COc1ccccc1OP(C)(=O)Nc1c(C)n(C)n(-c2ccccc2)c1=O (stereo not given) | inactive: -1.7%
COc1ccc(OP(C)(=O)Nc2ccc(Br)cc2)cc1 (stereo not given) | inactive: 1.11%
CCN(CC)CC(O)COC(=O)C(O)(c1ccccc1)C1CCCCC1 (stereo not given) | inactive: 2.18%
CCc1ccc(OP(C)(=O)O)cc1 | inactive: -1.45%
COc1ccccc1OP(C)(=O)Nc1ccc(C)cc1C (stereo not given) | inactive: 1.24%
CP(=O)(Nc1ccccn1)Oc1ccccc1 (stereo not given) | inactive: 1.93%
O=[N+]([O-])c1cc([N+](=O)[O-])c(Nc2ccccn2)c([N+](=O)[O-])c1 | inactive: -8.75%
Cc1c(NP(C)(=O)Oc2ccc(C(C)C)cc2)c(=O)n(-c2ccccc2)n1C (stereo not given) | inactive: -0.97%
CN(C)CCOC(=O)C(O)(c1ccccc1)C1CCCC1 (stereo not given) | inactive: -1.13%
COc1ccc(OP(C)(=O)Nc2ccccn2)cc1 (stereo not given) | inactive: -0.78%
COc1ccccc1OP(C)(=O)Nc1ccc(Br)cc1 (stereo not given) | inactive: 0.97%
CP(=O)(OCCOc1ccccc1)OCCOc1ccccc1 | inactive: 3.25%
CP(=O)(Nc1ccc(Cl)cc1Cl)Oc1ccccc1 (stereo not given) | inactive: 0.07%
CCCCCCCCCCCCCCCC1C[N+](C)(C)CCOP(C)(=O)O1 (stereo not given) | inactive: 1.46%
COc1ccc(OP(C)(=O)Nc2ccccc2Br)cc1 (stereo not given) | inactive: 0.43%
COc1ccccc1OP(C)(=O)Nc1ccc(C)c(C)c1 (stereo not given) | inactive: 0.14%
Cc1cc(C)cc(OP(C)(=O)Nc2cccc(C(F)(F)F)c2)c1 (stereo not given) | inactive: 1.63%
O=C1C(O)=C([N+](=O)[O-])C(=O)C(O)=C1[N+](=O)[O-] | inactive: -2.34%
O=[N+]([O-])c1cc([N+](=O)[O-])c(OC2CCCCC2O)c([N+](=O)[O-])c1 (stereo not given) | inactive: -7.86%

SMILES | inhibition
CCCCCOc1ccc(NP(C)(=O)Oc2ccc(Cl)cc2Cl)cc1 (stereo not given) | inactive: -2.43%
CP(=O)(Nc1ccccc1)Oc1ccc(F)cc1 (stereo not given) | inactive: 0.36%
CCN(CC)CCCOC(=O)C(O)(c1ccccc1)C1CCCCC1 (stereo not given) | inactive: 1.19%
Cc1c([N+](=O)[O-])cc([N+](=O)[O-])c(Br)c1[N+](=O)[O-] | inactive: -3.45%
COc1ccc(OP(C)(=O)Nc2ccc(SC(F)(F)F)cc2)cc1 (stereo not given) | inactive: -3.47%
CCOC(=O)c1ccc(NP(C)(=O)Oc2ccc(F)cc2)cc1 (stereo not given) | inactive: 0.98%
COc1ccc2c(c1O)-c1c(O)c(OC)cc3c1[C@H](C2)[N+](C)(C)CC3.O=[N+]([O-])c1cc([N+](=O)[O-])c([O-])c([N+](=O)[O-])c1[O-] | active: 52%
O=C(OCCN1CCN(CCOCc2ccccc2)CC1)C(O)(c1ccccc1)c1ccccc1 | inactive: -3.3%
O=C(OC1CN2CCC1CC2)c1ccc([N+](=O)[O-])cc1 (stereo not given) | inactive: 0.9%
CC(C)c1ccc(OP(C)(=O)Nc2ccc(SC(F)(F)F)cc2)cc1 (stereo not given) | inactive: -2.2%
CP(=O)(Nc1ccccc1F)Oc1ccccc1 (stereo not given) | inactive: 3.31%
O=[N+]([O-])c1cc([N+](=O)[O-])c(Nc2ccc(Cl)cc2)c([N+](=O)[O-])c1 | inactive: -6.45%
Cc1ccccc1NP(C)(=O)Nc1ccccc1C | inactive: 1.95%
CP(=O)(Nc1ccc2c(c1)OCCO2)Oc1ccccc1 (stereo not given) | inactive: 0.61%
CCOP(C)(=S)SCC(=O)NC(C)(CC)C(=O)O (stereo not given) | inactive: -2.66%
CP(=O)(Nc1ccc(SC(F)(F)F)cc1)Oc1ccc(F)cc1 (stereo not given) | inactive: 0.38%
Cc1c(C(c2ccc3c(c2)OCO3)c2c(C)n(C)n(-c3ccccc3)c2=O)c(=O)n(-c2ccccc2)n1C.O=[N+]([O-])c1cc([N+](=O)[O-])c(O)c([N+](=O)[O-])c1 | inactive: -3.89%
O=[N+]([O-])c1cc([N+](=O)[O-])c(NCC2CCS(=O)(=O)C2)c([N+](=O)[O-])c1 (stereo not given) | inactive: -10.1%
Cc1cc(-c2cccc3ccccc23)c(C)cn1.O=[N+]([O-])c1cc([N+](=O)[O-])c(O)c([N+](=O)[O-])c1 | inactive: -3.09%
O=[N+]([O-])c1ccc(OP2(=O)COCCO2)cc1 (stereo not given) | inactive: 2.6%
COc1ccc(NP(C)(=O)Oc2ccccc2OC)cc1 (stereo not given) | inactive: 4.49%
CN(C)CCOC(=O)C(O)(c1ccccc1)C1CCCCC1 (stereo not given) | inactive: 0.01%
COc1ccc(OP(C)(=O)Nc2cccc(Br)c2)cc1 (stereo not given) | inactive: 0.33%
